Data published in publication PMC8383266 (Biochemistry, 2021).

Tested on: CC1(C)S[C@@H]2[C@H](NC(=O)[C@H](N)c3ccccc3)C(=O)N2[C@H]1C(=O)O
Assay: purified protein
Details: pH 6.4; 25.0 °C

Question: For (Mycobacterium tuberculosis H37Rv), which Km is on record?
Answer: Its Km is 130 µM.
